In paper PMC3866925, “Functional characterization of two members of histidine phosphatase superfamily in Mycobacterium tuberculosis” (BMC Microbiology, 2013) one finds Km and kcat/Km data, which are given here for one substance.

What all share (test): purified protein
What all share (details): pH 5.8; 37.0 °C

One series concerns C=C(OP(=O)(O)O)C(=O)O.
Another series has as its system O=P(O)(O)OCC(O)CO.
The test system of series [1] is O=[N+]([O-])c1ccc(OP(=O)(O)O)cc1.

For the substance “C-His-Rv2135c (Mycobacterium tuberculosis H37Rv)”, the Km worked out at 11.25 ± 0.75 mM in the series with C=C(OP(=O)(O)O)C(=O)O, 14.00 ± 0.00 mM in the series on O=P(O)(O)OCC(O)CO and 10.60 ± 0.07 mM in series [1]. Besides, in series [1], the specificity constant (kcat/Km) came out at 6530 M⁻¹ s⁻¹.

In general, Km refers to the substrate concentration at which the rate is half of its maximum. The kcat/Km is the second-order rate constant that governs catalysis at low substrate concentration.
